Test results: article PMC9794196, “Lassa virus glycoprotein nanoparticles elicit neutralizing antibody responses and protection” (Cell Host & Microbe, 2022)

Biological target: GPC-I53-50A (GPCysR4, Josiah strain, genetically fused to I53-50A.1NT1) (Lassa virus, Josiah (lineage IV), R207C | E329P | L258R | L259R | G360C)

B1: LAVA01 Fab (Fab, V domains shown)
VH: NSQLEESGGGLVQTEGSLTLTCTASGFSFSNNDYICWVRQAPGKGLEWIGCIYSDYGFSFFATWAKDRFSGSKTSSTTVTLQGTGLTAADTATYFCVKTYVSRFGYYIRWDYFDLWGPGTLVIVSS
VL: DQVMTQTPSPVSAAVGGTVSISCQSSKSVHNENFLSWYQQKPGQRPKLLIYRASTLASGVPSRFKGSGSGTQFTLTISDVQCDDAATYYCAGGDIQSSDDVFGGGTEVVVQ
stoichiometry N: 3
